Data: PubChem BioAssay AID1476 (National Center for Advancing Translational Sciences (NCATS), 2009)
Only a part is listed here, and it is no random draw. Records with an inconclusive call do not appear. Activity calls are given as the source filed them. Calls come from the whole dose curve; as a rule, active = well fitted inhibition curve with a large enough effect; inconclusive = small, poorly fitted or top-dose-only effect, or effect the other way; inactive = flat fitted curve, though single readings scatter.

Protein sequences, listed by entry. Tags and fused reporters are not part of them. Residues count along the entry.
UniProt P25779, 123-467 limits assumed: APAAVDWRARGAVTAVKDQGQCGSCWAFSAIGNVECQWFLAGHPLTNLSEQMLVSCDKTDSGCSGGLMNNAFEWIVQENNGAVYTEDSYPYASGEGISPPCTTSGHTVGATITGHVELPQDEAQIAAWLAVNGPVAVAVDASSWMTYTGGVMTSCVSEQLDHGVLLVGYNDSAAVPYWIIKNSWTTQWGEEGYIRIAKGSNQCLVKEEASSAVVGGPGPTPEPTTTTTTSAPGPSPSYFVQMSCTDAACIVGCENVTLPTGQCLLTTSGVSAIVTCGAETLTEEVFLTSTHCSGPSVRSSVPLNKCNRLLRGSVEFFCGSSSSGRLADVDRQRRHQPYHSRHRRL

These compounds were tested against Cruzipain (Trypanosoma cruzi) (UniProt P25779) (assay: qHTS Assay for Promiscuous and Specific Inhibitors of Cruzain (without detergent)). Conditions: purified cruzain, Z-FR-AMC fluorescence, no detergent.
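Note: plate controls were enzyme without inhibitor for no effect and buffer without enzyme for full effect; nearly all actives have a fitted effect of over 40% in size.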

| Structure (SMILES) | max response, negative = inhibition |
| --- | --- |
| O=C(OC1CN2CCC1CC2)C1c2ccccc2Oc2ccccc21 (stereo not given) | inactive: -6.15% |
| O=C(NCC1(N2CCOCC2)CCCCC1)c1cc2ccccc2o1 | inactive: -7.67% |
| COc1ccccc1C(=O)NCC1(N2CCOCC2)CCCCC1 | inactive: 4.11% |
| COc1ccc(NC2CCN(CCc3ccccc3)CC2)c(OC)c1 | inactive: -7.65% |
| O=C(NCC1(N2CCOCC2)CCCCC1)c1ccc(Cl)cc1 | inactive: 6.04% |
| O=C(NCC1(N2CCOCC2)CCCCC1)c1cc(=O)[nH]c2ccccc12 | inactive: -9.45% |
| CN1CCN(CCOC(=O)C(O)(c2ccccc2)c2ccccc2)CC1 | inactive: 4.78% |
| CCCOc1cccc(C(=O)NCC2(N3CCOCC3)CCCCC2)c1 | inactive: -3.27% |
| N#CC1(Nc2ccccc2)CCN(CCc2ccccc2)CC1 | inactive: -8.3% |
| CCOc1ccc(C(=O)NCC2(N3CCOCC3)CCCCC2)cc1 | inactive: 2.22% |
| CCCCOc1ccccc1C(=O)NCC1(N2CCOCC2)CCCCC1 | inactive: 7.74% |
| O=C(NCC1(N2CCOCC2)CCCCC1)c1ccccc1Br | inactive: -7.93% |
| NC1CCCCC1.NP(=O)(O)N(CCCl)CCCl | inactive: 12.2% |
| CCOP(=O)(Cl)Cl | inactive: -2.88% |
| O=C(OC1CN2CCC1CC2)C1c2ccccc2C=Cc2ccccc21 (stereo not given) | inactive: 2.05% |
| N/C(=N\O)c1c(N)no[n+]1[O-] | inactive: -5.13% |
| ClCCOP(OCCCl)OCCCl | inactive: -12.9% |
| c1ccc(CN2CCC(Nc3ccccc3)CC2)cc1 | inactive: -6.4% |
| O=C(NCC1(N2CCOCC2)CCCCC1)c1ccccc1 | inactive: 2.74% |
| O=C(NCC1(N2CCOCC2)CCCCC1)c1ccccc1[N+](=O)[O-] | inactive: -3.72% |
| O=C(NCC1(N2CCOCC2)CCCCC1)c1ccc([N+](=O)[O-])cc1 | inactive: 2.37% |
| Cc1ccccc1C(=O)NCC1(N(C)C)CCCCC1 | inactive: -4.97% |
| CC(C)(C)c1ccc(C(=O)NCC2(N3CCOCC3)CCCCC2)cc1 | inactive: 6.29% |
| CCN1CCC(Nc2cccc(F)c2)CC1 | inactive: 4.87% |
| Fc1ccccc1NC1CCN(Cc2ccccc2)CC1 | inactive: -0.394% |
| CN(C)C1(CNC(=O)c2ccc(C(C)(C)C)cc2)CCCCC1 | inactive: -3.96% |
| COc1cc(C(=O)NCC2(N3CCOCC3)CCCCC2)cc(OC)c1OC | inactive: -0.175% |
| CCC(CO)(C(=O)OC1CN2CCC1CC2)c1ccccc1 (stereo not given) | inactive: -4.35% |
| O=C(O)C1(Nc2ccccc2)CCN(Cc2ccccc2)CC1 | inactive: 2.13% |
| CCOc1ncccc1C(=O)NCC1(N2CCOCC2)CCCCC1 | inactive: 0.65% |
